For the assay, the target named is anthrax lethal factor (LF) (Bacillus anthracis, UniProt P15917). It counts as biochemical. The note with it: read-out: IC50 (µM), MKK6 cleavage.

The chains behind the UniProt entries cited, without tags or fusion partners. Residues count along the entry.
UniProt P15917, 34-809 limits assumed: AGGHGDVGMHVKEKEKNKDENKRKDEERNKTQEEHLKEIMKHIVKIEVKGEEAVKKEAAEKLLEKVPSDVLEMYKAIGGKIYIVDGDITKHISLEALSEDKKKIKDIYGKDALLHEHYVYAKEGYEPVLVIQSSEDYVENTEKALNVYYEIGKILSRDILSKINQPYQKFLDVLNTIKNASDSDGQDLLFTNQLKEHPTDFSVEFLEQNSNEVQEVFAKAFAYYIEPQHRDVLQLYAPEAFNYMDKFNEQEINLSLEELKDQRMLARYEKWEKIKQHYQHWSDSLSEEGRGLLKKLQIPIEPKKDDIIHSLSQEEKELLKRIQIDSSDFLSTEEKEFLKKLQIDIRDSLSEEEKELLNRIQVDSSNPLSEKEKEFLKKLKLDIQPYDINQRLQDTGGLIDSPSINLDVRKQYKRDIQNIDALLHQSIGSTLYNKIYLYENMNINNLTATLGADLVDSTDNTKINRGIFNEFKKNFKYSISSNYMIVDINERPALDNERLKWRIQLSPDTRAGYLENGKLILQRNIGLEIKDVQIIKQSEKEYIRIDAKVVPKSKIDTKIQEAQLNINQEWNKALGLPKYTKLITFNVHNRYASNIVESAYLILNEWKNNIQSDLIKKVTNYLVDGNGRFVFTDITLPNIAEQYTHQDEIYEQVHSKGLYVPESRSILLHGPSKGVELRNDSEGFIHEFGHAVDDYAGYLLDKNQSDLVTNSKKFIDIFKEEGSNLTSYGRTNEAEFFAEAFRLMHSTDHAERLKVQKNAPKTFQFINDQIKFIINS

A value given as a limit tells only on which side of the number the result lay.

As usually defined, the IC50 is the concentration that inhibits the measured activity by half. For the substance Reduced parellic acid [Compound 9], the half-inhibitory concentration (IC50) is more than 250 µM.
